Compound potency records, mixed from different reports. Data source: NIAID ChemDB in PubChem.

Shared fields: tests on isolated targets; organism: HIV-1; protein: Reverse transcriptase; measure: IC50

ICn is the concentration giving n% inhibition.

SMILES,strain,mutations,read by,value
Cc1nnc2c3ccccc3c(N3CCc4ccc(C#N)cc4C3)nn12,IIIB,-,RT activity / fluorescence,4.39 µM
CC(C)=CCOc1cc(NC(=S)c2ccsc2C)ccc1Cl,-,RT-Y181I,-,1.2 µM
O=S(=O)(c1ccc(Cl)cc1)c1c[nH]c2ccccc12,-,WT,RT activity,61 µM
O=C1Nc2ccc(F)c(F)c2[C@@](C#CC2CC2)(C(F)(F)F)N1,-,-,-,0.018 µM
Cc1cc(C)cc(S(=O)(=O)c2[nH]c3ccccc3c2-c2cccc([N+](=O)[O-])c2)c1,-,Y181C,RT activity,8 µM
Cc1occc1C(=S)Nc1ccc(Cl)c(/C=N/OC(C)(C)C)c1,-,-,nucleotide incorporation / radiometric,13 µM
CCOC(=O)C1SCC(=O)N1c1nc(C)c(CC)c(C)n1,-,-,RT activity / absorbance,3.02 µM
Cc1ccc(S(=O)(=O)n2cc(-c3cccc([N+](=O)[O-])c3)c3ccccc32)cc1,-,Y181C,RT activity,27 µM
CC(=O)Nc1ccc2c(c1)CN(c1nn3c(C4CC4)nnc3c3ccccc13)CC2,IIIB,-,RT activity / fluorescence,0.15 µM
CC(C)=CCOc1cc(NC(=S)c2ccoc2C)ccc1Cl,-,RT-Y188L,-,>100 µM
COC(=O)/C(C)=C\C=C\[C@H](C)[C@H](O)[C@@H](C)[C@@H](O)[C@@H](C)[C@H](OC(C)=O)[C@H](C)[C@H](/C=C/O[C@@]1(C)Oc2c(C)c(O)c3c(c2C1=O)C(=O)C=C(N)C3=O)OC,-,-,ELISA,>300 µM
Cc1cc(N2C(=O)CSC2c2c(Cl)cccc2Cl)nc(C)n1,-,-,absorbance,10–100 µg/mL
CCOC(=O)CN1C(=O)CSC1c1c(Cl)cccc1Cl,-,-,RT activity / absorbance,>100 µM
CCN1c2ncc(CCOc3ccc(/C=C(\C)C(=O)O)c4ccccc34)cc2C(=O)N(C)c2ccc(C)nc21,-,RT-K103N Y181C,nucleotide incorporation / radiometric,0.1–1 µM
CCN1c2ncc(CCOc3cccc4c3ccc[n+]4[O-])cc2C(=O)Nc2c(C)cc(Cl)nc21,IIIB,-,nucleotide incorporation / radiometric,0.007 µM
Cc1cn(S(=O)(=O)c2ccc(C(C)(C)C)cc2)c2ccccc12,-,WT,RT activity,62 µM
Cc1cn([C@H]2C[C@H](O)[C@@H](COC(=O)CCCCCC(=O)O)O2)c(=O)[nH]c1=O,-,-,nucleotide incorporation / radiometric,>200 µg/mL
CCN1c2ncc(CCOc3ccc4cc(CC(=O)NN)ccc4c3)cc2C(=O)N(C)c2cccnc21,-,RT-K103N Y181C,nucleotide incorporation / radiometric,0.1–1 µM
COC(=O)/C(C)=C\C=C\[C@H](C)[C@@H]1OCO[C@@H]([C@@H](C)[C@H](OC(C)=O)[C@H](C)[C@H](/C=C/O[C@@]2(C)Oc3c(C)c(O)c4c(c3C2=O)C(=O)C=C(N)C4=O)OC)[C@@H]1C,-,-,ELISA,>300 µM
N#Cc1ccc(Nc2nc(Oc3c(F)cc(-c4ccc(C#N)cc4)cc3F)c3sccc3n2)cc1,IIIB,-,RT activity / fluorescence,0.041 µM
C=CCO/N=C/c1cc(NC(=S)c2ccoc2C)ccc1Cl,-,RT-K103N,nucleotide incorporation / radiometric,>50 µM
CCc1c(-c2coc(CC/C(C)=C/c3ccccc3)n2)oc(OC)c(C)c1=O,-,-,nucleotide incorporation,376 µM
N#Cc1ccc(Nc2nc(Oc3ccc(-c4ccc(C#N)cc4)c(F)c3F)c3sccc3n2)cc1,IIIB,-,RT activity / fluorescence,0.039 µM
CN(C)c1nc(N)nc2c1ncn2[C@H]1C[C@H](N=[N+]=[N-])[C@@H](CO)O1,-,K65R,nucleotide incorporation,>50 µM
CCc1c(C)nc(N2C(=O)CSC2CO)nc1C,-,-,RT activity / absorbance,3.06 µM
O=c1[nH]c(=O)n([C@H]2C[C@H](O)[C@@H](CO)O2)cc1-c1cccs1,-,-,nucleotide incorporation / radiometric,>300 µg/mL
Cc1cc(-c2ccc(C#N)cc2)cc(Cl)c1Oc1nc(Nc2ccc(C#N)cc2)nc2ccsc12,IIIB,-,RT activity / fluorescence,0.044 µM
FC(F)(F)c1cccc2c1CCN(c1nn3c(C4CC4)nnc3c3ccccc13)C2,IIIB,-,RT activity / fluorescence,30.6 µM
Cc1cn([C@H]2C[C@H](O)[C@@H](COC(=O)C3CCC(C(=O)O)CC3)O2)c(=O)[nH]c1=O,-,-,nucleotide incorporation / radiometric,140 µg/mL
Cc1ccc(S(=O)(=O)c2c(-c3ccc(Cl)cc3)[nH]c3ccccc23)cc1,-,K103N,RT activity,36 µM
CCN1c2ncc(CCOc3ccc(C(=O)O)c4c3CCN(C(=O)N(C)C)C4)cc2C(=O)N(C)c2cccnc21,-,RT-Y188L,nucleotide incorporation / radiometric,0.1–1 µM
Cc1cc(C(F)(F)F)nc(N2C(=O)CSC2c2c(F)cccc2F)n1,-,-,absorbance,>100 µg/mL
O=C(O)CCCCC(=O)OC[C@H]1O[C@@H](n2cc(-c3cccs3)c(=O)[nH]c2=O)C[C@@H]1O,-,-,nucleotide incorporation / radiometric,60 µg/mL
Cc1nnc2c3ccccc3c(N3CCc4ccccc4C3)nn12,IIIB,-,RT activity / fluorescence,0.14 µM
Cc1cc(C(F)(F)F)nc(N2C(=O)CSC2c2c(Cl)cccc2Cl)n1,-,-,absorbance,>100 µg/mL
c1ccc2c(c1)CCN(c1nn3c(-c4ccsc4)nnc3c3ccccc13)C2,KER2008,-,RT activity / fluorescence,10.1 µM
CCN1c2ncc(CCOc3ccc(CC(=O)O)c4ccccc34)cc2C(=O)Nc2c(C)cc(F)nc21,-,RT-Y188L,nucleotide incorporation / radiometric,>1 µM
Fc1ccc2c(c1)CN(c1nn3c(C4CC4)nnc3c3ccccc13)CC2,98US_MSC5016,-,RT activity / fluorescence,0.64 µM
COP(=O)(c1cc(C)cc(CCC#N)c1)c1c(C(N)=O)[nH]c2ccc(Cl)c(F)c12,-,K103N,RT activity,0.782 µM
COC(=O)C(C)CCC[C@H](C)[C@H](O)[C@@H](C)[C@@H](O)[C@@H](C)[C@H](O)[C@H](C)[C@H](CCO[C@@]1(C)Oc2c(C)c(O)c3c(c2C1=O)C(=O)C=C(N)C3=O)OC,-,-,ELISA,>300 µM
Cc1occc1C(=S)Nc1ccc(Cl)c(C(=O)OCC2CC2)c1,-,RT-V106A,nucleotide incorporation / radiometric,>50 µM
CCOC(=O)CN1C(=O)CSC1c1ccccc1Cl,-,-,RT activity / absorbance,10.01 µM
Cc1cn([C@H]2C[C@H](O)[C@@H](COC(=O)CCCCC(=O)O)O2)c(=O)[nH]c1=O,-,-,nucleotide incorporation / radiometric,80 µg/mL
O=C1CSC(c2c(F)cccc2Cl)N1c1nc(-c2ccccc2)cc(C(F)(F)F)n1,-,-,absorbance,>100 µg/mL

Repeating the final 5 entries:

SMILES	strain	mutations	read by	value
COC(=O)C(C)CCC[C@H](C)[C@H](O)[C@@H](C)[C@@H](O)[C@@H](C)[C@H](O)[C@H](C)[C@H](CCO[C@@]1(C)Oc2c(C)c(O)c3c(c2C1=O)C(=O)C=C(N)C3=O)OC	-	-	ELISA	>300 µM
Cc1occc1C(=S)Nc1ccc(Cl)c(C(=O)OCC2CC2)c1	-	RT-V106A	nucleotide incorporation / radiometric	>50 µM
CCOC(=O)CN1C(=O)CSC1c1ccccc1Cl	-	-	RT activity / absorbance	10.01 µM
Cc1cn([C@H]2C[C@H](O)[C@@H](COC(=O)CCCCC(=O)O)O2)c(=O)[nH]c1=O	-	-	nucleotide incorporation / radiometric	80 µg/mL
O=C1CSC(c2c(F)cccc2Cl)N1c1nc(-c2ccccc2)cc(C(F)(F)F)n1	-	-	absorbance	>100 µg/mL

Two numbers with a dash give a range or band. Blank or dashed fields: not listed here. Lines come from different laboratories, so protocols vary.